Test results: publication PMC3597823

Assays:
Assay in all cases: SPR
[1] = molecular target: N1 peptide P1 ([change]–94), Myc-tagged (murine)
[2] = molecular target: N1 peptide P3 ([change]–94), Myc-tagged (murine)
[3] = molecular target: N1 peptide P2 ([change]–94), Myc-tagged (murine)

synthetic Aβ_(1–42) oligomers (Aβ-derived diffusible ligands) (from UniProt P05067) (peptide)
Kd [1]: 12.8 nM
koff [1]: 0.000111 s⁻¹
decrease of binding against N1 [2]: 92%
Kd [3]: 26.3 nM
kon [3]: 5210 M⁻¹ s⁻¹
